Assay: Bottom-up proteomic identification (nanoLC-MS/MS) of proteins in intestinal segments
Parameters: species or system chicken

**Q.** Which results are given for “gallinacin-7 [Gallus gallus] (RPIDTCRLRNGICFPGICRRPYYWIGTCNNGIGSCCARGWRS; UniProt Q6QLR2 26-67, looked up)”?
**A.** Number of Unique Peptides, caecal tonsil (bottom-up nanoLC-MS/MS of protein extract from chicken caecal tonsil, endogenous protein identified): 3; Number of Unique Peptides, caecum (bottom-up nanoLC-MS/MS of protein extract from chicken caecum, endogenous protein identified): 3; Number of Unique Peptides, ileon (bottom-up nanoLC-MS/MS of protein extract from chicken ileon, endogenous protein identified): 2; Number of Unique Peptides, jejunum (bottom-up nanoLC-MS/MS of protein extract from chicken jejunum, endogenous protein identified): 2

B1: gallinacin 1 precursor (protein, UniProt P46156 1-65, looked up)
chain: MRIVYLLLPFILLLAQGAAGSSQALGRKSDCFRKSGFCAFLKCPSLTLISGKCSRFYLCCKRIWG
modifications: full-length
**Q.** Which “Number of Unique Peptides, caecal tonsil” value (chicken caecal tonsil protein extract, bottom-up nanoLC-MS/MS identification) does the source give for B1 here?
**A.** 1

**Q.** And the “Number of Unique Peptides, caecum” value (chicken caecum protein extract, bottom-up nanoLC-MS/MS identification)?
**A.** 0

**Q.** What about the “Number of Unique Peptides, ileon” value (chicken ileon protein extract, bottom-up nanoLC-MS/MS identification) of the same molecule?
**A.** 0

**Q.** And the “Number of Unique Peptides, jejunum” value (chicken jejunum protein extract, bottom-up nanoLC-MS/MS identification)?
**A.** 1

B2: RecName: Full=Spliceosome RNA helicase DDX39B; AltName: Full=56 kDa U2AF65-associated protein; AltName: Full=DEAD box protein UAP56 (protein, UniProt Q5ZHZ0 1-428, looked up)
Spliceosome RNA helicase …: MAENDVDNELLDYEEDEVENAAGGDGSEAPPKKDVKGSYVSIHSSGFRDFLLKPELLRAIVDCGFEHPSEVQHECIPQAILGMDVLCQAKSGMGKTAVFVLATLQQLEPVTGQVSVLVMCHTRELAFQISKEYERFSKYMPSVKVAVFFGGLAVKKDEEVLKKNCPHIVVGTPGRILALARNKSLNLKHIKHFILDECDKMLEQLDMRRDVQEIFRMTPHEKQVMMFSATLSKEIRPVCRKFMQDPMEIFVDDETKLTLHGLQQYYVKLKDNEKNRKLFDLLDVLEFNQVVIFVKSVQRCIALAQLLVEQNFPAIAIHRGMPQEERLSRYQQFKDFQRRILVATNLFGRGMDIERVNIAFNYDMPEDSDTYLHRVARAGRFGTKGLAITFVSDENDAKILNDVQDRFEVNISELPDEIDISSYIEQTR
**Q.** For B2, which “Number of Unique Peptides, caecal tonsil” value (chicken caecal tonsil protein extract, bottom-up nanoLC-MS/MS) is on record?
**A.** 0

**Q.** What about the “Number of Unique Peptides, caecum” value (chicken caecum protein extract, bottom-up nanoLC-MS/MS) of the same molecule?
**A.** 1

**Q.** And the “Number of Unique Peptides, ileon” value (chicken ileon protein extract, bottom-up nanoLC-MS/MS)?
**A.** 0

**Q.** What about the “Number of Unique Peptides, jejunum” value (chicken jejunum protein extract, bottom-up nanoLC-MS/MS) of the same molecule?
**A.** 0

Reference: article PMC4999073 (PLoS ONE, 2016)
